Reference: patent US4382952A, “Antibiotic roridin L-2 and its use” (dated 1983)
In brackets after ≈: the same amount, converted by molar mass.

Key:
[1] = test system: KB cells; assay: Zone of inhibition against KB cells in agar (paper disk); details: 6.4 mm paper disk
[2] = test system: P388 Lymphatic Leukemia; assay: Antitumor activity against P388 lymphatic leukemia in mice; details: values ≥ 130 considered active
[3] = test system: L1210 cells; assay: ID50 against L1210 cells

## CC1=C[C@H]2O[C@@H]3C[C@@H](OC(=O)/C=C\C=C\C(OCCC4=CC(=O)OC4)C(C)O)[C@](C)([C@@]2(CO)CC1)[C@]31CO1 (some centres unmarked)
[1]; 10 μg per milliliter
  zone diameter of inhibition: 12 mm
[1]; 100 μg per milliliter
  zone diameter of inhibition: 28 mm
[2]; 1 mg/kg/day, test 1
  T/C percent MST: 132%
[2]; 1 mg/kg/day, test 2
  T/C percent MST: 150%
[2]; 2 mg/kg/day, test 1
  T/C percent MST: 140%
[2]; 4 mg/kg/day, test 1
  T/C percent MST: 134%
[2]; 4 mg/kg/day, test 2
  T/C percent MST: 132%
[2]; 8 mg/kg/day, test 1
  T/C percent MST: 157%
[2]; 8 mg/kg/day, test 2
  T/C percent MST: 176%
[2]; 16 mg/kg/day, test 2
  T/C percent MST: 185%
[3]
  ID50: 0.178 µg/mL (≈ 0.335 µM)
